Experimental data published in the supplement of paper PMC3578754.
Fold change is the IC50 on the isolate divided by the IC50 on a reference virus; 1 = unchanged, higher = more resistant. Changes are given against the subtype B consensus. No active / inactive call. The values were gathered from many studies (numbered anew) with different assays, which the source does not name. Most viruses are clinical isolates; some are laboratory strains or clones with known resistance changes. Isolates with mixed residues are left out; stretches that were not sequenced show no change. Round top values that many isolates share are read here as limits; other very high values and 0.1 may be limits too. The protease changes I3V and N37S, insertions and deletions cannot be read from the source.

Tests used:
Test in all cases: fold change of IC50 against reference virus; higher = more resistant; Cell-culture drug susceptibility tests of virus bearing the protease of each isolate, gathered from many studies.
[1] = compound: CC(C)c1nc(CN(C)C(=O)N[C@H](C(=O)N[C@@H](Cc2ccccc2)C[C@H](O)[C@H](Cc2ccccc2)NC(=O)OCc2cncs2)C(C)C)cs1 [ritonavir]
[2] = compound: CCC[C@@]1(CCc2ccccc2)CC(O)=C([C@H](CC)c2cccc(NS(=O)(=O)c3ccc(C(F)(F)F)cn3)c2)C(=O)O1 [tipranavir]
[3] = compound: CC(C)(C)NC(=O)[C@@H]1CN(Cc2cccnc2)CCN1C[C@@H](O)C[C@@H](Cc1ccccc1)C(=O)N[C@H]1c2ccccc2C[C@H]1O [indinavir]
[4] = compound: COC(=O)N[C@H](C(=O)N[C@@H](Cc1ccccc1)[C@@H](O)CN(Cc1ccc(-c2ccccn2)cc1)NC(=O)[C@@H](NC(=O)OC)C(C)(C)C)C(C)(C)C [atazanavir]
[5] = compound: Cc1cccc(C)c1OCC(=O)N[C@@H](Cc1ccccc1)[C@@H](O)C[C@H](Cc1ccccc1)NC(=O)[C@H](C(C)C)N1CCCNC1=O [lopinavir]
[6] = compound: CC(C)(C)NC(=O)[C@@H]1C[C@@H]2CCCC[C@@H]2CN1C[C@@H](O)[C@H](Cc1ccccc1)NC(=O)[C@H](CC(N)=O)NC(=O)c1ccc2ccccc2n1 [saquinavir]
[7] = compound: Cc1c(O)cccc1C(=O)N[C@@H](CSc1ccccc1)[C@H](O)CN1C[C@H]2CCCC[C@H]2C[C@H]1C(=O)NC(C)(C)C [nelfinavir]

Row | Test System | fold change of IC50 against reference virus [1] | fold change of IC50 against reference virus [2] | fold change of IC50 against reference virus [3] | fold change of IC50 against reference virus [4] | fold change of IC50 against reference virus [5] | fold change of IC50 against reference virus [6] | fold change of IC50 against reference virus [7]
1 | HIV-1 isolate 1014 (protease changes: K14R L19I E35D N37D D60E I62V L63P V77I I93L, study 64) | 0.9 | 0.8 | 1 | 1 | 0.6 | – | –
2 | HIV-1 isolate 1040 (protease changes: L10V I13V I15V L19I L33F E34T M36L R41K M46I I47V I54V K55R Q61H I62V L63P A71T I72E G73A V77I V82C I85L L90M I93L, study 15) | – | 29 | 9.4 | 58 | 116 | 400 | 67
3 | HIV-1 isolate 1261 (protease changes: L10I L19I K20R E34D E35D M36I R41K M46I I47V I54M L63P A71T I84V I85V L90M I93L, study 64) | 84 | ≥ 800 | – | 53 | 76 | 62 | 53
4 | HIV-1 isolate 419 (protease changes: L10I K20I E35D M36I K43T G48M I54V L63Q I64V H69R A71V I72V P79Q I84V I85V L90M I93L, study 64) | 114 | 2 | 54 | 100 | 43 | – | 47
5 | HIV-1 isolate 1266 (protease changes: L10I I13V G16E L33F M36L N37T P39S K45R M46L I54V K55R I62V L63P A71V G73D V82T I84V L89V L90M I93L, study 46) | – | 96 | 189 | 121 | 133 | 223 | 38
6 | HIV-1 isolate 1060 (protease changes: L10I G16A L33F R41K K43T M46L F53L Q61E I62V L63P A71V T74P V77I V82A L90M I93L, study 15) | – | 35 | 24 | 32 | 47 | 200 | 41
7 | HIV-1 isolate 403 (protease changes: L10F V11I T12P I13V I15V L19P K20T V32I L33F E35G M36I I54V I62V L63P K70T A71I G73S P79A I84V L89V L90M, study 64) | ≥ 800 | 9.5 | – | 111 | ≥ 500 | – | 51
8 | HIV-1 isolate 77 (protease changes: L10I L33F M46L I54V L63P A71V G73S V77I I84V L90M I93L, study 64) | 66 | 3.5 | – | 47 | 27 | 55 | 36
9 | HIV-1 isolate 521 (protease changes: L10I K20R L33F E34T E35D M36I N37D K43T M46I G48V I50V I54S R57K I62V L63P A71V I72V V77I V82A I85V I93L, study 64) | ≥ 800 | 1.6 | ≥ 500 | 109 | ≥ 500 | – | –
10 | HIV-1 isolate 154 (protease changes: L10I I15V L24I M46L I54V L63P A71V V77I V82A I84V, study 64) | 77 | 1.7 | – | 7.5 | 18 | 14 | 9.5
11 | HIV-1 isolate 1437 (protease changes: L10I V11L I13V I15V G16A V32I L33F E34Q E35D M36I K43T M46I I47V F53L I54L K55R D60E I62V L63P I66V A71I G73T V77I I84V L90M I93L, study 15) | – | 400 | – | 400 | 400 | 400 | 91
12 | HIV-1 isolate 401 (protease changes: L38I K43R I62V L63P V77I I93L, study 64) | 0.4 | 0.6 | – | 0.7 | 0.3 | 0.6 | 1
13 | HIV-1 isolate 1561 (protease changes: L10I I15V L24F L33F E35D R41K M46I I54V I62V L63P A71V G73S V82A L90M I93L, study 64) | – | 2.1 | 40 | 139 | 103 | 44 | 91
14 | HIV-1 isolate 1079 (protease changes: L10I I13V K14R V32I L33F K43T M46I I47V I54L I62V L63P A71T I72T G73T V77I P79S I84V L90M, study 46) | – | 7.7 | 36 | 86 | 133 | 36 | 26
15 | HIV-1 isolate 1043 (protease changes: L10I L63P I93L, study 64) | 1.2 | 1.1 | 1.5 | 1 | 1.1 | 1 | –
16 | HIV-1 isolate 1095 (protease changes: T12V I13V I15V K20M V32I L33F K43T I54L K55N I62V L63P A71V I72V G73S V77I V82L I84V L89V L90M, study 46) | – | 13 | 48 | 121 | 46 | 30 | 62
